Results of unrelated studies side by side (data: NIAID ChemDB).

Shared fields: growth or infection tests; species: Hepatitis B virus

Rows are shuffled and stem from different studies. Blank or dashed fields: not listed here. Percent inhibition refers to the dose given; in toxicity tests it is the harm to the cells. a–b is a range or a potency band. ECn: concentration that inhibits the pathogen or its effect by n%.

compound,read by,dose,measure,cells,strain,result
O=c1ccn([C@H]2C[C@H](F)[C@@H](CO)O2)c(=O)[nH]1,,,EC90,HepG2.2.15,,36 µM
CC(C)OC(=O)CC1COP(=O)(CO[C@H](C)Cn2cnc3c(NC(=O)C(C)C)ncnc32)OC1,PCR,1 µM,inhibition,HepaRG,Genotype D,≤30%
O=C(O)c1ccccc1O,ELISA / antigen,,EC50,HepG2.2.15,,4650 µM
Nc1ccn([C@H]2CC[C@@H](CO)O2)c(=O)n1,,,EC90,HepG2.2.15,,6 µM
O=C1C[C@@H](c2ccc(O)cc2)Oc2cc(OC3O[C@H](CO)[C@@H](O)[C@H](O)[C@H]3O)cc(O)c21,ELISA / antigen,,EC50,HepG2.2.15,,390 µM
Nc1ccn([C@@H]2CS[C@H](CO)O2)c(=O)n1,,0.1 µM,inhibition,HepG2,WILD TYPE,94%
O=c1[nH]c(=O)n([C@H]2C[C@H](F)[C@@H](CO)O2)cc1Cl,,,EC90,HepG2.2.15,,>100 µM
Nc1ccn([C@H]2O[C@@H](CO)C=C2F)c(=O)n1,,,EC90,HEPAD79,RTM204,>10 µM
C[C@H](Cn1cnc2c(N)ncnc21)OCP(=O)(O)O,PCR,1 µM,inhibition,HepaRG,Genotype D,≤30%
Nc1ccn([C@@H]2CS[C@H](CO)O2)c(=O)n1,,,EC50,HepG2,Mutation L526M,0.03 µM
Nc1nc(=O)n([C@H]2O[C@@H](CO)C=C2F)cc1F,,,EC90,HepAD38,RTM204,0.63 µM
Cc1cn([C@H]2C[C@H](F)[C@@H](CO)O2)c(=O)[nH]c1=O,,,EC90,HepG2.2.15,,40 µM
Nc1nc2c(ncn2CCC(CO)CO)c(=O)[nH]1,,5 µM,inhibition,HepG2,WILD TYPE,41%
O=c1ccn([C@H]2CC[C@@H](CO)O2)c(=O)[nH]1,,,EC90,HepG2.2.15,,92 µM
Nc1nc(=O)n([C@H]2CS[C@@H](CO)O2)cc1F,,,EC90,HepAD38,RTM204,6.94 µM
CCC(CCC(C)C1CCC2C3C[C@@H](O)[C@@]4(O)C[C@@H](O)CCC4(C)C3CCC12C)C(C)C,antigen,50 µg/mL,inhibition,HepG2 2.2.15,,32.2%
CC(C)OC(=O)CCC1COP(=O)(CO[C@H](C)Cn2cnc3c(N)ncnc32)OC1,PCR,1 µM,inhibition,HepaRG,Genotype D,50–80%
Nc1nc(=O)n([C@@H]2CC[C@H](CO)O2)cc1F,,,EC90,HEPAD79,RTM204,>10 µM
CCOC(=O)/C=C/c1ccc(O)cc1,ELISA / antigen,,EC50,HepG2.2.15,,803 µM
Cc1cn([C@@H]2O[C@H](CO)[C@@H](O)[C@@H]2F)c(=O)[nH]c1=O,,,EC90,HepG2.2.15,,38 µM
CC1COP(=O)(CO[C@H](C)Cn2cnc3c(N)ncnc32)OC1,PCR,1 µM,inhibition,PHH,Genotype D,30–50%
CC(c1ccc(O)c(O)c1)N1C=NC2C(N)=NC=NC21,ELISA / antigen,,EC50,HepG2.2.15,,527 µM
Nc1nc(N)c2ncn([C@H]3CC[C@@H](CO)O3)c2n1,,,EC90,HepG2.2.15,,42 µM
Nc1ncnc2c1ncn2CCOCP(=O)(O)O,,,EC90,HepAD38,RTM204,>10 µM
Nc1ncnc2c1ncn2CCOCP(=O)(O)O,,,EC50,Huh7,Mutations L528M M552V,2.2 µM
COc1cc(C2Oc3cc(O)cc(O)c3C(=O)C2OC2O[C@H](CO)[C@@H](O)[C@H](O)[C@H]2O)ccc1O,ELISA / antigen,,EC50,HepG2.2.15,,447 µM
[N-]=[N+]=N[C@H]1C[C@H](n2ccc(N)nc2=O)O[C@@H]1CO,,,EC90,HepG2.2.15,,>100 µM
C[C@H](Cn1cnc2c(N)ncnc21)OCP1(=O)OCC(CCC(=O)OC2CCCC2)CO1,PCR,1 µM,inhibition,PHH,Genotype D,30–50%
CCOC(=O)c1ccc(O)cc1,PCR,,EC50,HepG2.2.15,,59.52 µM

A second listing of 2 rows from above:

{"compound": "Nc1nc(=O)n([C@H]2O[C@@H](CO)C=C2F)cc1F", "measure": "EC90", "cells": "HepAD38", "strain": "RTM204", "result": "0.63 µM"}
{"compound": "CCOC(=O)c1ccc(O)cc1", "read by": "PCR", "measure": "EC50", "cells": "HepG2.2.15", "result": "59.52 µM"}